Pooled drug test results. Numbers come from NIAID ChemDB, via PubChem.

All rows: enzyme or target tests; organism: HIV-1; protein: Protease

ICn: concentration for n% inhibition. Lines come from different laboratories, so protocols vary. Percent inhibition refers to the dose given; in toxicity tests it is the harm to the cells. An empty or dashed field is not shown.

smiles,method,tested at,read-out,changes,value
CCC(C)C(NC(=O)C1CCCN1C(=O)CC(=O)N1CCCC1C(=O)NC(C(=O)NC(C(=O)OC)C(C)C)C(C)CC)C(=O)NC(C(=O)OC)C(C)C,absorbance,10 µM,inhibition,,<10%
CC[C@H](C)[C@H](NC(=O)[C@@H]1CCCN1C(=O)[C@H](O)[C@H](Cc1ccccc1)NC(=O)[C@H](CO)NC(=O)Cc1ccccc1)C(=O)N[C@H](C(N)=O)C(C)C,,,IC50,,<5 µM
COC(=O)[C@@H](NC(=O)[C@H](Cc1ccccc1)NC(=O)N[C@@H](Cc1ccccc1)C(=O)N[C@H](C(=O)OC)C(C)C)C(C)C,absorbance,10 µM,inhibition,,<10%
CCCCNC(=O)[C@H](CC(C)C)N1C[C@@H]2O[C@H](C(=O)N3CCCCC3)[C@@H](O2)C1=O,FRET,10 µM,inhibition,,0%
CC[C@H](C)COC(=O)[C@H](Cc1ccccc1)NC(=O)C(=O)N[C@@H](Cc1ccccc1)C(=O)OC[C@@H](C)CC,absorbance,10 µM,inhibition,,22%
CC(C)C[C@@H](C(=O)O)N1C[C@@H]2O[C@H](C1=O)[C@H](C(=O)N1CCCCC1)O2,FRET,1 µM,inhibition,,0%
CC(C)(C)NC(=O)[C@@H]1C[C@H](c2ccccc2)CN1C(=O)[C@@H](O)[C@H](Cc1ccccc1)NC(=O)[C@H](CC(N)=O)NC(=O)OCc1ccccc1,,0.05 µM,inhibition,,4%
CC(O)[C@H](NC(=O)CCCCCCCCCCCCCCC(=O)N[C@@H](CC(N)=O)C(=O)N[C@@H](Cc1ccccc1)C(=O)O)C(=O)N[C@H](C(=O)N[C@@H](Cc1ccccc1)C(N)=O)C(C)(C)C,,,IC50,,12.8 µM
CC(C)(C)NC(=O)[C@@H]1C2CCCCC2CCN1C(=O)[C@@H](O)[C@H](Cc1ccccc1)NC(=O)[C@H](CS(C)(=O)=O)NC(=O)COc1cccc2ccccc12,,,IC50,,>0.05 µM
CC(C)CCNC(=O)[C@@H]1O[C@H]2O[C@@H]1C(=O)N(Cc1ccccc1)[C@H]2Cc1ccccc1,FRET,1 µM,inhibition,,0%
CC(C)C[C@H](NC(=O)[C@@H](NC(=O)CCCCCCCCCCCCCCC(=O)N[C@@H](CC(N)=O)C(=O)N[C@@H](Cc1ccccc1)C(=O)O)C(C)O)C(=O)N[C@H](C(N)=O)C1CCCCC1,,,IC50,,3.1 µM
NC(=O)C[C@H](NC(=O)COc1cccc2ccccc12)C(=O)N[C@@H](Cc1ccccc1)[C@H](O)C(=O)N1CSC[C@H]1C(=O)N1CCCCC1,,5 µM,inhibition,,>90%
CC(C)C[C@H](NC(=O)[C@H](Cc1ccccc1)NC(=O)CCCCCCCCCCCCCCC(=O)N[C@@H](CC(N)=O)C(=O)N[C@@H](Cc1ccccc1)C(=O)O)C(=O)N[C@@H](Cc1ccccc1)C(N)=O,,,IC50,,0.56 µM
O=C(N[C@@H](Cc1ccccc1)C(=O)OCc1ccccc1)C(=O)N[C@@H](Cc1ccccc1)C(=O)OCc1ccccc1,absorbance,10 µM,inhibition,,<10%
CC(C)C[C@H](NC(=O)[C@@H](NC(=O)CCCCCCCCCCCCCCC(=O)N[C@@H](CC(N)=O)C(=O)N[C@@H](Cc1ccccc1)C(=O)O)C(C)O)C(=O)N1Cc2[nH]c3ccccc3c2CC1C(=O)O,,,IC50,,6.1 µM
CC(C)[C@H](C)OC(=O)[C@H](Cc1ccccc1)NC(=O)C(=O)N[C@@H](Cc1ccccc1)C(=O)O[C@@H](C)C(C)C,absorbance,10 µM,inhibition,,<10%
CC(C)C[C@H](NC(=O)[C@@H](NC(=O)CCCCCCCCCCCCCCC(=O)N[C@@H](CC(N)=O)C(=O)N[C@@H](Cc1ccccc1)C(=O)O)C(C)O)C(=O)N1CCC[C@H]1C(=O)O,,,IC50,,>5.5 µM
CC(C)COC(=O)[C@H](Cc1c[nH]c2ccccc12)NC(=O)C(=O)N[C@@H](Cc1c[nH]c2ccccc12)C(=O)OCC(C)C,absorbance,10 µM,inhibition,,<10%
CSCC[C@H](NC(=O)CCCCCCCCCCCCCCC(=O)N[C@@H](CC(N)=O)C(=O)N[C@@H](Cc1ccccc1)C(=O)O)C(=O)N[C@@H](CC(C)C)C(=O)N[C@@H](Cc1ccccc1)C(N)=O,,,IC50,,1.16 µM
CC[C@H](C)[C@H](NC(=O)[C@@H]1CCCN1C(=O)[C@@H](O)[C@H](Cc1ccccc1)NC(=O)[C@H](CC(N)=O)NC(=O)CCc1ccccc1)C(=O)N[C@H](C(N)=O)C(C)C,,5 µM,inhibition,,93%
CC[C@H](C)[C@H](NC(=O)[C@@H](NC(=O)CCCCCCCCCCCCCCC(=O)N[C@@H](CC(N)=O)C(=O)N[C@@H](Cc1ccccc1)C(=O)O)C(C)O)C(=O)N[C@@H](Cc1ccccc1)C(N)=O,,,IC50,PR-L10I K45R I54V L63P A71V V82T L90M I93L,~2.48 µM
CCCCNC(=O)[C@@H]1O[C@@H]2CN(Cc3ccccc3)C(=O)[C@H]1O2,FRET,10 µM,inhibition,,0%
CC(C)(C)NC(=O)[C@@H]1CCCN1C(=O)[C@@H](O)[C@H](Cc1ccccc1)NC(=O)[C@H](CS(N)(=O)=O)NC(=O)OC(C)(C)C,,,IC50,,>5 µM
CC(C)C[C@H](NC(=O)[C@@H](NC(=O)CCCCCCCCCCCCCCC(=O)N[C@@H](CC(N)=O)C(=O)N[C@@H](Cc1ccccc1)C(=O)O)C(C)O)C(=O)N[C@@H](Cc1cccc2ccccc12)C(N)=O,,,IC50,,3.06 µM

Repeating the first 2 entries:

smiles,method,tested at,read-out,changes,value
CCC(C)C(NC(=O)C1CCCN1C(=O)CC(=O)N1CCCC1C(=O)NC(C(=O)NC(C(=O)OC)C(C)C)C(C)CC)C(=O)NC(C(=O)OC)C(C)C,absorbance,10 µM,inhibition,,<10%
CC[C@H](C)[C@H](NC(=O)[C@@H]1CCCN1C(=O)[C@H](O)[C@H](Cc1ccccc1)NC(=O)[C@H](CO)NC(=O)Cc1ccccc1)C(=O)N[C@H](C(N)=O)C(C)C,,,IC50,,<5 µM